Bounds are passed on as bounds.

The data set deals with HCV. Put plainly: Inhibition effects of compounds on HCV in Huh7.5 cultured cell after HCV infection. Type of data set: cell-based. The method, then:
1×10^5/ml Huh7.5 cells (purchased from Vertex Pharmaceutical Co., USA) were inoculated in an amount of 0.1 ml on 96-well culture plate, placed in an incubator with 37° C., 5% CO2 content and saturation humidity, and cultured for 24 h, HCV virus in 45 IU/cell was used to infect Huh7.5, different drug solutions (DM122) formulated with culture medium were added, and cell control and HCV infection control were set. Cultivation was continuously performed in the incubator with 37° C., 5% CO2 content and saturation humidity for 72 h, kit for RNA extraction was used to extract intracellular RNA, one-step qRT-PCR was used to determine intracellular contents of HCV and GAPDH RNA, and the inhibition effects of drug on HCV infection was analyzed. […] In comparison with the virus control group, the inhibition effects on HCV infection upon action of different drugs were analyzed. […] This experiment was repeated for 3 times, * indicated […] in comparison with control, ** indicated p<0.01 in comparison with control.
For `Cc1ccc(C(=O)N2CC3CCCN4CCCC(C34)C2CCCC(=O)O)cc1` [Compound L7, (5R)—N-(p-methylbenzoyl)matrinic acid], the “SI (selectivity index, CC50/EC50)” value was greater than 3.42.
Under `COc1ccc(S(=O)(=O)N2CC3CCCN4CCCC(C34)C2CCCC(=O)O)cc1` (stereo not shown) [DM-103, N-(4-methoxybenzenesulfonyl) matrinic acid] stands greater than 7.37; under `COc1ccc(CN2CC3CCCN4CCCC(C2CCCC(=O)O)C34)cc1` (stereo not shown) [DM-122, N-(4-methoxybenzyl) matrinic acid], greater than 3.96; under `O=C(O)CCC[C@@H]1[C@H]2CCCN3CCC[C@@H](CN1Cc1ccc([N+](=O)[O-])cc1)[C@@H]23` [DM-123, N-(4-nitrobenzyl) matrinic acid], 4.36.
To `O=C(O)CCCC1C2CCCN3CCCC(CN1Cc1ccccc1Cl)C23` (stereo not shown) [DM-124, N-(2-chlorobenzyl) matrinic acid] belongs 7.39; to `O=C(O)CCCC1C2CCCN3CCCC(CN1Cc1cccc(Cl)c1)C23` (stereo not shown) [DM-125, N-(3-chlorobenzyl) matrinic acid], greater than 29.1; to `O=C(O)CCCC1C2CCCN3CCCC(CN1Cc1ccc(Cl)cc1)C23` (stereo not shown) [DM-126, N-(4-chlorobenzyl) matrinic acid], greater than 47.4.
To `O=C(O)CCC[C@@H]1[C@H]2CCCN3CCC[C@@H](CN1Cc1ccc(Cl)c(Cl)c1)[C@@H]23` [DM-127, N-(3,4-dichlorobenzyl) matrinic acid] belongs 3.76; to `O=C(O)CCCC1C2CCCN3CCCC(CN1Cc1ccc(Br)cc1)C23` (stereo not shown) [DM-128, N-(4-bromobenzyl) matrinic acid], 10.36; to `O=C(O)CCCC1C2CCCN3CCCC(CN1Cc1cccc(Cl)c1Cl)C23` (stereo not shown) [DM-129, N-(2,3-dichlorobenzyl) matrinic acid], 1.28.
With `Cc1ccc([N+](=O)[O-])cc1C(=O)N1C[C@@H]2CCCN3CCC[C@@H]([C@H]23)[C@H]1CCCC(=O)O` [DM-131, N-(2-methyl-5-nitrobenzoyl) matrinic acid], the “SI (selectivity index, CC50/EC50)” value is reported as greater than 11.2.
Under `O=C(O)CCCC1C2CCCN3CCCC(CN1Cc1ccc(F)cc1)C23` (stereo not shown) [DM-132, N-(4-fluorobenzyl) matrinic acid] stands 17.09; under `O=C(O)CCCC1C2CCCN3CCCC(CN1Cc1cccc(F)c1)C23` (stereo not shown) [DM-133, N-(3-fluorobenzyl) matrinic acid], 7.84.
Under `N#Cc1ccc(CN2C[C@@H]3CCCN4CCC[C@@H]([C@H]34)[C@H]2CCCC(=O)O)cc1` [DM-134, N-(4-cyanobenzyl) matrinic acid] stands greater than 19.16; under `O=C(O)CCC[C@@H]1[C@H]2CCCN3CCC[C@@H](CN1Cc1ccccc1F)[C@@H]23` [DM-135, N-(2-fluorobenzyl)matrinic acid], 20.8.
`O=C(O)CCCC1C2CCCN3CCCC(CN1Cc1cccc([N+](=O)[O-])c1)C23` (stereo not shown) [DM-137, N-(3-nitrobenzyl) matrinic acid]: the “SI (selectivity index, CC50/EC50)” value is recorded as greater than 38.2.
`Cc1ccccc1CN1CC2CCCN3CCCC(C1CCCC(=O)O)C23` (stereo not shown) [DM-138, N-(2-methylbenzyl) matrinic acid]: the “SI (selectivity index, CC50/EC50)” value came to 5.07.
On to `Cc1cccc(CN2CC3CCCN4CCCC(C2CCCC(=O)O)C34)c1` (stereo not shown) [DM-139, N-(3-methylbenzyl) matrinic acid], for which the “SI (selectivity index, CC50/EC50)” value is given as 8.97.
Under `Cc1ccc(CN2CC3CCCN4CCCC(C2CCCC(=O)O)C34)cc1` (stereo not shown) [DM-140, N-(4-methylbenzyl) matrinic acid] stands greater than 53.5; under `O=C(O)CCCC1C2CCCN3CCCC(CN1Cc1ccccn1)C23` (stereo not shown) [DM-143, N-(pyridin-2-yl) methyl matrinic acid], 30.06; under `O=C(O)CCCC1C2CCCN3CCCC(CN1Cc1cccnc1)C23` (stereo not shown) [DM-144, N-(pyridin-3-yl) methyl matrinic acid], greater than 31.4.
Consider `O=C(O)CCCC1C2CCCN3CCCC(CN1Cc1ccncc1)C23` (stereo not shown) [DM-145, N-(pyridin-4-yl)methyl matrinic acid], for which the “SI (selectivity index, CC50/EC50)” value was greater than 8.5.
Under `O=C(O)CCC[C@@H]1[C@H]2CCCN3CCC[C@@H](CN1Cc1cscn1)[C@@H]23` [DM-146, N-(thiazol-4-yl)methyl matrinic acid] stands greater than 15.6.
To `O=C(O)CCCC1C2CCCN3CCCC(CN1Cc1cccc4ccccc14)C23` (stereo not shown) [DM-148, N-(naphthyl-1-yl) methyl matrinic acid] belongs less than 1.6; to `N#Cc1ccc(C(=O)N2CC3CCCN4CCCC(C34)C2CCCC(=O)O)cc1` (stereo not shown) [DM-152, N-(4-cyanobenzoyl) matrinic acid], greater than 7.96; to `O=C(O)CCCC1C2CCCN3CCCC(CN1C(=O)c1ccc(F)cc1)C23` (stereo not shown) [DM-154, N-(4-fluorobenzoyl) matrinic acid], 3.
For the molecule `O=C(O)CCC[C@@H]1[C@H]2CCCN3CCC[C@@H](CN1C(=O)c1ccc(C(F)(F)F)cc1)[C@@H]23` [DM-155, N-(4-trifluoromethylbenzoyl) matrinic acid], the “SI (selectivity index, CC50/EC50)” value was 3.
To `O=C(O)CCC[C@@H]1[C@H]2CCCN3CCC[C@@H](CN1Cc1ccc(OC(F)(F)F)cc1)[C@@H]23` [DM-162, N-(4-trifluoromethoxybenzyl) matrinic acid] belongs 12.67; to `O=C(O)C=CCC1C2CCCN3CCCC(CN1S(=O)(=O)c1ccc(C(F)(F)F)cc1)C23` (stereo not shown) [SC-84a, N-(p-trifluoromethylbenzene sulfonyl) sophocarpinic acid], 70.3; to `N#Cc1cccc(S(=O)(=O)N2CC3CCCN4CCCC(C34)C2CC=CC(=O)O)c1` (stereo not shown) [SC-89b, N-(m-cyanobenzenesulfonyl) sophocarpinic acid], 30.9.
In the case of “N-(4-ethenyl benzyl) matrinic acid [DM-136]”, the “SI (selectivity index, CC50/EC50)” value was 39.2.

The values above are taken from US20130190345A1, “MATRINIC ACID/MATRINE DERIVATIVES AND PREPARATION METHODS AND USES THEREOF” (priority 2010, published 2013).
